Results of unrelated studies side by side (data: NIAID ChemDB).

MIC bound comes from a single tested concentration.

| SMILES | cells | test | organism | mutations | strain or isolate | read by | target | measure | dose | value |
|---|---|---|---|---|---|---|---|---|---|---|
| CC1CCC(NCCNc2cccc3ncccc23)CC1 | - | culture | Mycobacterium tuberculosis | - | - | - | - | MIC | - | 3.13 µM |
| Nc1cc([As](=O)([O-])O)ccc1OCCO.[Na+] | - | culture | Mycobacterium tuberculosis | - | H37Rv | - | - | MIC | - | >100 µg/mL |
| C=CC/C(=N\OS(=O)(=O)O)S[C@@H]1O[C@H](CO)[C@@H](O)[C@H](O)[C@H]1O | - | culture | Mycobacterium tuberculosis | - | H37Rv | resazurin | - | MIC bound | - | >6.25 µg/mL |
| CCCCCCCCCCCNCCNCC1(O)CCCCC1 | - | culture | Mycobacterium tuberculosis | - | - | - | - | MIC | - | 50 µM |
| Nc1c(Cl)cc(Cl)cc1Cl | - | culture | Mycobacterium tuberculosis | - | H37Rv | - | - | MIC | - | >100 µg/mL |
| CCOC(=O)c1c(C)nc(OCCCNc2ccnc3cc(Cl)ccc23)nc1-c1ccccc1 | - | culture | Cryptococcus gattii | - | 547/OTTI-97-PI-10 | - | - | MIC99 | - | 16 µg/mL |
| CC1(C)CC2CC(C)(CN2CCNCC23CC4CC(CC(C4)C2)C3)C1 | - | culture | Mycobacterium tuberculosis | - | - | - | - | MIC | - | 9.4 µM |
| O=c1sc(N=Nc2ccccc2)nn1-c1ccccc1 | - | culture | Mycobacterium tuberculosis | - | H37Rv | BACTEC | - | MIC bound | - | >12.5 µg/mL |
| C=CCc1ccc(OC)c(OC)c1 | - | culture | Candida albicans | - | 3068 | turbidity | - | MIC90 | - | 345 µg/mL |
| CCOC(=O)c1cn(C(=O)CCl)c2ccccc2c1=O | - | culture | Mycobacterium tuberculosis | - | H37Rv | resazurin | - | MIC bound | - | >6.25 µg/mL |
| COc1ccccc1OCC(=O)O | - | culture | Mycobacterium tuberculosis | - | H37Rv | - | - | MIC | - | >100 µg/mL |
| COc1cc(C[C@H](C)[C@H](C)Cc2ccc(O)c(O)c2)ccc1O | - | culture | Candida colliculosa | - | CCC 122-2000 | broth dilution | - | MIC80 | - | 31.25 µg/mL |
| CC(=O)c1c(O)c(C)c(O)c2c1OC1=CC(=O)C(C(C)=O)C(=O)C12C | - | culture | Mycobacterium tuberculosis | - | RMP-R | - | - | MIC | - | >12.5 µg/mL |
| CCOC(=O)c1c(C)nc(NCCCNc2ccnc3cc(Cl)ccc23)nc1-c1ccccc1 | - | culture | Cryptococcus gattii | - | ATCC 32608 | - | - | MIC99 | - | 16 µg/mL |
| OCc1ccc(-c2cncc(N3CCN(c4ccc(Cl)c(Cl)c4)CC3)n2)cc1 | - | target | Cytomegalovirus | - | - | - | UL97 kinase | IC50 | - | <10 µM |
| CCc1ccc(NCc2cc(OC)c(OC)c(OC)c2)cc1 | - | culture | Mycobacterium tuberculosis | - | H37Rv | BACTEC | - | MIC bound | - | >12.8 µg/mL |
| O=[N+]([O-])c1cc([As](=O)([O-])O)ccc1OCCO.[Na+] | - | culture | Mycobacterium tuberculosis | - | H37Rv | - | - | MIC | - | 100 µg/mL |
| Oc1ccccc1C=Nc1ccccc1O | - | culture | Cryptococcus neoformans | - | ATCC 28957 | broth dilution | - | MIC | - | 4 µg/mL |
| O=C(/C=N/O)Nc1ccccc1C(=O)O | - | culture | Mycobacterium tuberculosis | - | H37Rv | - | - | MIC | - | 50 µg/mL |
| CCOC(=O)c1c(C)nc(NCCCCNc2ccnc3cc(Cl)ccc23)nc1-c1ccc(F)cc1 | - | culture | Cryptococcus neoformans | - | 27JF | - | - | MIC99 | - | 16 µg/mL |
| FC(F)(F)c1cccc(N2CCN(c3cncc(-c4ccoc4)n3)CC2)c1 | - | target | Cytomegalovirus | - | - | - | UL97 kinase | IC50 | - | <100 µM |
| O=C(Nc1nnc(NCCc2cnc[nH]2)s1)c1c(Cl)cccc1Cl | - | target | Human cytomegalovirus | - | - | - | Polymerase | IC50 | - | <25 µM |
| Oc1ccccc1N=Cc1ccc(F)cc1 | - | culture | Cryptococcus neoformans | - | GM | broth dilution | - | MIC | - | 5.8 µg/mL |
| FC(F)(F)c1cc(-c2cncc(N3CCN(c4ccncc4)CC3)n2)cc(C(F)(F)F)c1 | - | target | Cytomegalovirus | - | - | - | UL97 kinase | IC50 | - | <100 µM |
| CC1=NNC(=O)C1 | - | culture | Mycobacterium tuberculosis | - | H37Rv | - | - | MIC | - | >100 µg/mL |
| CCOc1ccc2ccccc2c1C(=O)Nc1nnc(NCCCn2ccnc2)s1 | - | target | Human cytomegalovirus | - | - | - | Polymerase | IC50 | - | >25 µM |
| CC(CNCCc1ccccc1F)NCC12CC3CC(CC(C3)C1)C2 | - | culture | Mycobacterium tuberculosis | - | - | - | - | MIC | - | 25 µM |
| COc1ccc(N2CCN(c3cncc(-c4cccs4)n3)CC2)cc1OC | - | target | Cytomegalovirus | - | - | - | UL97 kinase | inhibition | 1 µM | <50% |
| NC(=O)C[n+]1cccc(C(N)=O)c1.[Cl-] | - | culture | Mycobacterium tuberculosis | - | H37Rv | BACTEC | - | MIC | - | ≥12.5 µg/mL |
| CCOC(=O)CCCCCCCCCCCC[C@H]1C=CCC1 | - | culture | Mycobacterium tuberculosis | - | H37Rv | - | - | MIC | - | >100 µg/mL |
| COc1ccc(OC)c(CCNCCNCCCN2CCCC2=O)c1 | - | culture | Mycobacterium tuberculosis | - | - | - | - | MIC | - | 12.5 µM |
| Nc1ccc(S(=O)(=O)c2ccc(N)cc2Cl)cc1 | - | culture | Mycobacterium tuberculosis | - | H37Rv | - | - | MIC | - | 25 µg/mL |
| Cn1c(COC(=O)Nc2ccc(N(CCCl)CCCl)cc2)cnc1[N+](=O)[O-] | - | culture | Mycobacterium tuberculosis | - | H37Rv | resazurin | - | inhibition | 6.25 µg/mL | 7% |
| O=[N+]([O-])CC(O)(c1ccccc1)c1ccccc1 | - | culture | Mycobacterium tuberculosis | - | H37Rv | - | - | MIC | - | >100 µg/mL |
| C#CC[C@@H](C(=O)N[C@H](/C=C/C(=O)OCC)C[C@@H]1CCNC1=O)n1cccc(NC(=O)c2cc(C)on2)c1=O | H1-HELA | culture | Rhinovirus | - | Serotype 86 | cytopathic effect / XTT | - | EC50 | - | 0.071 µM |
| O=C1OC(c2ccccc2)=N/C1=C\c1cccs1 | - | culture | Mycobacterium tuberculosis | - | H37Rv | BACTEC | - | MIC bound | - | >12.5 µg/mL |
| Nc1ccc(S(=O)(=O)c2ccc(O)cc2)cc1 | - | culture | Mycobacterium tuberculosis | - | H37Rv | - | - | MIC | - | >100 µg/mL |
| c1ccc(C(CNCCNC23CC4CC(CC(C4)C2)C3)c2ccccc2)cc1 | - | culture | Mycobacterium tuberculosis | - | - | - | - | MIC | - | 37.5 µM |
| Cc1nc(NCCCCNc2ccnc3cc(Cl)ccc23)nc(-c2ccccc2)c1C(=O)OC(C)C | - | culture | Cryptococcus gattii | - | ATCC 32608 | - | - | MIC99 | - | 16 µg/mL |
| O=C(CN1C(=O)c2ccccc2C1=O)CN1C(=O)c2ccccc2C1=O | - | culture | Mycobacterium tuberculosis | - | H37Rv | - | - | MIC | - | >100 µg/mL |
| CCOc1ccc2ccccc2c1C(=O)Nc1nnc(NC[C@@H]2CCC3CC2C3(C)C)s1 | - | target | Human cytomegalovirus | - | - | - | Polymerase | IC50 | - | >25 µM |
| O=C1OC(c2ccccc2)(c2ccccc2)C=C1c1ccccc1 | - | culture | Mycobacterium tuberculosis | - | H37Rv | - | - | MIC | - | >100 µg/mL |
| O=C(Nc1nnc(NCc2cccc3ccccc23)s1)c1ccc([N+](=O)[O-])o1 | - | target | Human cytomegalovirus | - | - | - | Polymerase | IC50 | - | <25 µM |
| C/C=C/c1noc2c1C(=O)OC(C)C2 | - | culture | Mycobacterium tuberculosis | - | H37Rv | BACTEC | - | MIC bound | - | >12.5 µg/mL |
| Cc1ccc(-c2ccccn2)cc1[N+](=O)[O-] | - | culture | Mycobacterium tuberculosis | - | H37Rv | - | - | MIC | - | >100 µg/mL |
| O=c1cnn([C@@H]2O[C@H](CO)[C@@H](O)[C@H]2O)c(=O)[nH]1 | - | culture | Mycobacterium tuberculosis | - | H37Rv | resazurin | - | MIC bound | - | >6.25 µg/mL |
| CCCCC(CC)CN1CN(CC(CC)CCCC)CC(C)(NCCNC2CCC2)C1 | - | culture | Mycobacterium tuberculosis | - | - | - | - | MIC | - | 12.5 µM |
| COc1ccccc1C(=O)Nc1nnc(NCCNc2ccccc2)s1 | - | target | Human cytomegalovirus | - | - | - | Polymerase | IC50 | - | >25 µM |
| C=CC12c3c4cc(OC)cc3OC1C(O)CCC2CC4 | - | culture | Mycobacterium tuberculosis | - | H37Rv | BACTEC | - | inhibition | 12.5 µg/mL | 7% |
| COc1ccc(OC)c(-c2cncc(N3CCN(c4ccc(F)cc4)CC3)n2)c1 | - | target | Cytomegalovirus | - | - | - | UL97 kinase | inhibition | 10 µM | >15% |
| O=Cc1cc(I)c(O)c(I)c1 | - | culture | Mycobacterium tuberculosis | - | H37Rv | - | - | MIC | - | 50 µg/mL |
| Fc1cccc(C2CN(c3ccccn3)CCN2c2cnccn2)c1 | - | target | Cytomegalovirus | - | - | - | UL97 kinase | IC50 | - | <100 µM |
| Oc1ccccc1Cl | - | culture | Mycobacterium tuberculosis | - | H37Rv | - | - | MIC | - | >100 µg/mL |
| COc1ccc(-c2coc3c4c(c(CC=C(C)C)c(OC)c3c2=O)OC(C)(C)C=C4)cc1OC | - | culture | Mycobacterium tuberculosis | - | H37Rv | BACTEC | - | MIC bound | - | >12.5 µg/mL |
| CCOC(=O)c1c(C)nc(NCCCCNc2ccnc3cc(Cl)ccc23)nc1-c1ccccc1 | - | culture | Cryptococcus gattii | - | 135L/03 | - | - | MIC99 | - | 8 µg/mL |
| CCC(CC)O[C@@H]1C=C(C(=O)O)C[C@H](N)[C@H]1NC(C)=O | MDCK | culture | Influenza A virus | - | H1N1 A/NWS/33 | - | - | EC50 | - | >100 µM |
| Cl.Nc1nc(N)nc(Nc2ccc(O)cc2)n1 | - | culture | Mycobacterium tuberculosis | - | H37Rv | - | - | MIC | - | >100 µg/mL |
| Nc1cc2nc3ccccc3sc-2cc1=O | - | culture | Mycobacterium tuberculosis | - | H37Rv | BACTEC | - | MIC | - | 0.2 µg/mL |
| CCc1ccc(C(=O)c2ccccc2)cc1 | - | culture | Mycobacterium tuberculosis | - | H37Rv | - | - | MIC | - | >100 µg/mL |
| CC(=O)c1cccc(-c2cncc(N3CCN(c4ccccc4)CC3)n2)c1 | - | target | Cytomegalovirus | - | - | - | UL97 kinase | IC50 | - | <10 µM |
| Cc1ccnc2c1NC(=O)c1cccnc1N2C1CC1 | MT-4 | culture | HIV-1 | RT-M41L T215Y A98G | - | - | - | EC95 | - | 3 µM |
| Fc1ccc(N2CCCCC2)c(NC(=S)c2ccncc2)c1 | - | host protein | - | - | - | kinase activity | Flt4 | inhibition | 10 µM | 26% |
| O=c1c2ccccc2sc2c1c(N(CCO)CCO)cc1ccccc12 | - | culture | Mycobacterium tuberculosis | - | H37Rv | BACTEC | - | MIC bound | - | >12.5 µg/mL |
| CCOC(=O)C(=NNc1cccc(Cl)c1)C(=O)OCC | - | culture | Mycobacterium tuberculosis | - | H37Rv | - | - | MIC | - | >100 µg/mL |
| COc1ccc(-c2cncc(N3CCN(c4ccc(C)cc4C)CC3)n2)cc1OC | - | target | Cytomegalovirus | - | - | - | UL97 kinase | IC50 | - | <100 µM |
| CC1(C)C2CC[C@@H](CNc3nnc(NC(=O)c4cc5ccccc5s4)s3)C1C2 | - | target | Human cytomegalovirus | - | - | - | Polymerase | IC50 | - | >25 µM |
| COc1cc2c(cc1OC)C1CC3(CCN1CC2)CC(=O)NC3=O | - | culture | Mycobacterium tuberculosis | - | H37Rv | BACTEC | - | MIC | - | ≥12.5 µg/mL |
| CCO/N=C/c1ccc(OCCC2CCN(c3ccc(C)nn3)CC2)cc1 | KB | culture | Rhinovirus | - | 16/60 (ICAM-1 receptor group 4) | neutral red | - | EC50 | - | 0.022 µM |
| Cc1nn(C(=O)c2ccc(Cl)cc2)c2c1C(c1ccc(Cl)cc1)SC(N)=N2 | - | culture | Mycobacterium tuberculosis | - | H37Rv | BACTEC | - | MIC bound | - | >12.5 µg/mL |
| CCOCC(O)CNCCN | - | culture | Mycobacterium tuberculosis | - | H37Rv | - | - | MIC | - | >100 µg/mL |
| O=C1N(Cl)C2C(N1Cl)N(Cl)C(=O)N2Cl | - | culture | Mycobacterium tuberculosis | - | - | resazurin | - | MIC bound | - | >6.25 µg/mL |
| CCCCC(CC)CN1CN(CC(CC)CCCC)CC(C)(NCCNCc2cccc(C)c2)C1 | - | culture | Mycobacterium tuberculosis | - | - | - | - | MIC | - | 6.25 µM |
| CCOC(=O)C(CC(C)C)NC(=O)c1cc([N+](=O)[O-])c(C)c2c1Nc1c(c(C)c3oc(=O)c(C)nc3c1C(=O)NC(CC(C)C)C(=O)OCC)O2 | - | culture | Mycobacterium tuberculosis | - | H37Rv | BACTEC | - | inhibition | 12.5 µg/mL | 9% |
| CCOC(=O)c1csc(CCCOc2ccccc2)c1NC(=O)c1ccccc1 | - | culture | Mycobacterium tuberculosis | - | H37Rv | - | - | MIC | - | >100 µg/mL |
| CCOC(=O)C1(n2[nH]c(=O)n(-c3ccccc3)c2=O)CC(C)(C)OC1=O | - | culture | Mycobacterium tuberculosis | - | H37Rv | BACTEC | - | inhibition | 12.5 µg/mL | 2% |
| O=C(Nc1nnc(NCCCCc2ccccc2)s1)c1ccc(F)cc1F | - | target | Human cytomegalovirus | - | - | - | Polymerase | IC50 | - | >25 µM |
| NC1=NNC2(C(=O)N1)c1ccccc1-c1ccccc12 | - | culture | Mycobacterium tuberculosis | - | H37Rv | BACTEC | - | inhibition | 12.5 µg/mL | 92% |
| O=C(Nc1nnc(NCCC(c2ccccc2)c2ccccc2)s1)c1cc2ccccc2s1 | - | target | Human cytomegalovirus | - | - | - | Polymerase | IC50 | - | >25 µM |

ICn is the concentration giving n% inhibition. An empty or dashed field is not shown. A number after MIC or MFC names an inhibition level or a share of isolates. Inhibition is in % at the dose shown (toxicity tests: loss of growth or viability). Lines come from different laboratories, so protocols vary. ECn: concentration that inhibits the pathogen or its effect by n%.